{
  "source": "the supplement of paper PMC9931576",
  "binders": {"B1": {"name": "BD56-1234 (protein)", "chain 1": "QVQLVESGGGVVQPGRSLRLSCAASGFTFRNYGIHWFRQAPGKGLEWVAIIWYDGSNKYYAASVKGRFTISRDNSQNTVYLQMNSLRAGDTAVYYCARGYSSHDILTGEEDAFDLWGQGTMVTVSS", "chain 2": "QSVLTQPPSVSAAPGQKVTISCSGSRSNIGNHYVSWYQQLPGTAPKLLIYDNTERPSGIPDRFSASKSATSATLGITGLQTGDEADYYCGTWDTSLGAVVFGGGTKLTVL"}, "B2": {"name": "BD56-1248 (protein)", "chain 1": "QVQLVQSGAEVKKPGASVKVSCKASGYMFTTYGISWVRQAPGQGLEWIGWISAYNGDTNYSHKVQDRVTMTTDTSSSTAYMELRSLRSDDTAVYYCARDFGEISGSENHDYWGQGTLVTVSS", "chain 2": "EIVLTQSPATLSLSPGERATLSCRASQSVSIYLAWFQQKPGQAPRLLIYHASTRATGIPGRFSGSGSGTDFTLTISSLEPEDFAVYYCQHRSSWPFFGQGTRLEIK"}, "B3": {"name": "BD56-1249 (protein)", "chain 1": "QVQLVQSGAEVKKPGSSVRVSCKASGGNLINYAASWVRQAPGQGLEWMGGIVPILDITNYAQKFQGRVTITADKSTDTAYMELSSLRSEDTAVYFCATGVQYCSGSRCNSAYFDSWGQGTLVTVSS", "chain 2": "EIVLTQSPATLSLSPGERATLSCRASQSISSSHLAWYQQKPGQAPRLLIYGASSRATGIPDRFSGSGSGTDFTLTITRLAPEDFAVYYCQQYGSSPQRTFGQGTKVEIK"}, "B4": {"name": "BD56-1250 (protein)", "chain 1": "QVQLVQSGAEVKKPGSSVRVSCKASGGTLINYALSWVRQAPGQGLEWMGGIVPILDITNYALKFQGRVTITADKSTSTAYMELSSLRSEDTALYFCATGVRYCDGSTCNSAYFDSWGQGTLVTVSS", "chain 2": "EIVLTQSPGTLSLSPGERATLSCRASQTISSTHLAWYQQKPGQAPRLLIYGASSRATDIPDRFSGSGSGTDFTLTISTLAPEDFAVYYCQQYGSSPQRTFGQGTKVEIK"}, "B5": {"name": "BD56-1253 (protein)", "chain 1": "EVQLVESGGGLIQPGGSLRLSCVASGFSVSNNYMTWVRQAPGKGLEWVSVIYSDGTTYYTDSVKGRYIISRDNSKNTLYLQMNRLRAEDTAVYYCVCSWYYDFLTGYYGFDYWGQGTLVTVSS", "chain 2": "QAVVTQEPSLTVSPGGTVTLTCGSSTGPVTSGHYPYWFQQKPGQAPRTLVYDTSNKQSWTPARFSGSLLGGKAALTLSGAQPEDEAEYYCLLSYSGARPGIFGGGTKLTVL"}, "B6": {"name": "BD56-1256 (protein)", "chain 1": "QAQLVESGGGVLQPGRSLRLSCVASRLTFSAYGMHWVRQAPGKGLEWVAVISSDGRNKYYADSVKGRFSISRDNSKNTLYLQMNSLRAEDAAVYYCARLLGYYDGSGYFGNEYWGQGTLVTVSS", "chain 2": "QSALTQPASVSGSPGQSITISCTGTSSDVGGYNFVSWYQQHPGKAPKLMIYDVSDRPSGVSNRFSGSKSGNTASLAISGLQAEDEADYYCSSYTISSTVVFGGGTKLTVL"}},
  "note": "Human monoclonal antibodies against the spike receptor-binding domain (heavy:light variable regions). IC50 against pseudoviruses bearing the spike of naturally observed variants; lower = stronger; >10 µg/ml means not reached at the top dose. No active / inactive call. The stated detection limit is 0.0005 µg/ml; values near or below 0.001 µg/ml lie at the floor of the assay.",
  "data": [
    {"biological_target": "SARS-CoV-2 Omicron BA.1 spike pseudovirus", "test": "pseudovirus neutralization IC50; higher = weaker neutralization", "description": "(§1)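 Single-round VSV luciferase pseudovirus mixed with antibody dilutions for 1 h and put on Huh-7 cells for about a day; IC50 from the dose curve.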", "units": {"pseudovirus neutralization IC50": "µg/mL"}, "values": [
      {"binder": "B1", "pseudovirus neutralization IC50": 2.17},
      {"binder": "B2", "pseudovirus neutralization IC50": 0.258},
      {"binder": "B3", "pseudovirus neutralization IC50": 0.00444},
      {"binder": "B4", "pseudovirus neutralization IC50": 0.0417},
      {"binder": "B5", "pseudovirus neutralization IC50": "> 10"},
      {"binder": "B6", "pseudovirus neutralization IC50": "> 10"}
    ]},
    {"biological_target": "SARS-CoV-2 Omicron BA.2 spike pseudovirus", "test": "pseudovirus neutralization IC50; higher = weaker neutralization", "description": "as §1", "units": {"pseudovirus neutralization IC50": "µg/mL"}, "values": [
      {"binder": "B1", "pseudovirus neutralization IC50": 2.14},
      {"binder": "B2", "pseudovirus neutralization IC50": 0.0785},
      {"binder": "B3", "pseudovirus neutralization IC50": 0.00117},
      {"binder": "B4", "pseudovirus neutralization IC50": 0.00158},
      {"binder": "B5", "pseudovirus neutralization IC50": "> 10"},
      {"binder": "B6", "pseudovirus neutralization IC50": "> 10"}
    ]},
    {"biological_target": "SARS-CoV-2 Omicron BA.2.75 spike pseudovirus", "test": "pseudovirus neutralization IC50; higher = weaker neutralization", "description": "as §1", "units": {"pseudovirus neutralization IC50": "µg/mL"}, "values": [
      {"binder": "B1", "pseudovirus neutralization IC50": 1.58},
      {"binder": "B2", "pseudovirus neutralization IC50": 0.288},
      {"binder": "B3", "pseudovirus neutralization IC50": 0.00129},
      {"binder": "B4", "pseudovirus neutralization IC50": 0.00293},
      {"binder": "B5", "pseudovirus neutralization IC50": "> 10"},
      {"binder": "B6", "pseudovirus neutralization IC50": "> 10"}
    ]},
    {"biological_target": "SARS-CoV-2 Omicron BA.5 spike pseudovirus", "test": "pseudovirus neutralization IC50; higher = weaker neutralization", "description": "as §1", "units": {"pseudovirus neutralization IC50": "µg/mL"}, "values": [
      {"binder": "B1", "pseudovirus neutralization IC50": 2.49},
      {"binder": "B2", "pseudovirus neutralization IC50": "> 10"},
      {"binder": "B3", "pseudovirus neutralization IC50": 0.422},
      {"binder": "B4", "pseudovirus neutralization IC50": 1.61},
      {"binder": "B5", "pseudovirus neutralization IC50": "> 10"},
      {"binder": "B6", "pseudovirus neutralization IC50": "> 10"}
    ]},
    {"biological_target": "SARS-CoV-2 Omicron BQ.1.1 spike pseudovirus", "test": "pseudovirus neutralization IC50; higher = weaker neutralization", "description": "as §1", "units": {"pseudovirus neutralization IC50": "µg/mL"}, "values": [
      {"binder": "B1", "pseudovirus neutralization IC50": 2.81},
      {"binder": "B2", "pseudovirus neutralization IC50": "> 10"},
      {"binder": "B3", "pseudovirus neutralization IC50": "> 10"},
      {"binder": "B4", "pseudovirus neutralization IC50": 1.49},
      {"binder": "B5", "pseudovirus neutralization IC50": "> 10"},
      {"binder": "B6", "pseudovirus neutralization IC50": "> 10"}
    ]},
    {"biological_target": "SARS-CoV-2 Omicron XBB spike pseudovirus", "test": "pseudovirus neutralization IC50; higher = weaker neutralization", "description": "as §1", "units": {"pseudovirus neutralization IC50": "µg/mL"}, "values": [
      {"binder": "B1", "pseudovirus neutralization IC50": 2.5},
      {"binder": "B2", "pseudovirus neutralization IC50": "> 10"},
      {"binder": "B3", "pseudovirus neutralization IC50": "> 10"},
      {"binder": "B4", "pseudovirus neutralization IC50": "> 10"},
      {"binder": "B5", "pseudovirus neutralization IC50": "> 10"},
      {"binder": "B6", "pseudovirus neutralization IC50": "> 10"}
    ]},
    {"biological_target": "SARS-CoV-2 early D614G spike pseudovirus", "test": "pseudovirus neutralization IC50; higher = weaker neutralization", "description": "as §1", "units": {"pseudovirus neutralization IC50": "µg/mL"}, "values": [
      {"binder": "B1", "pseudovirus neutralization IC50": 1.88},
      {"binder": "B2", "pseudovirus neutralization IC50": 0.201},
      {"binder": "B3", "pseudovirus neutralization IC50": 0.023},
      {"binder": "B4", "pseudovirus neutralization IC50": 0.00512},
      {"binder": "B5", "pseudovirus neutralization IC50": 1.1},
      {"binder": "B6", "pseudovirus neutralization IC50": 1.75}
    ]}
  ]
}
